Pooled drug test results. Numbers come from NIAID ChemDB, via PubChem.

Common to all: enzyme or target tests; protein: CCR5

Blank or dashed fields: not listed here.

compound | changes | endpoint | read by | setting | value
CCN(C(=O)OCc1ccccc1)C1CCN(CCC(CNC)(CN(C)S(=O)(=O)c2ccccc2)c2ccccc2)CC1 | - | IC50 | radioligand binding / binding | - | >0.1 µM
CCCN(C(=O)c1ccccc1)C1CCN(CCC(CN(C)S(=O)(=O)c2ccccc2)c2ccccc2)CC1 | - | IC50 | radioligand binding / binding | - | 0.1 µM
CCO/N=C(\c1ccc(Br)cc1)C1CCN(C2(C)CCN(C(=O)c3c(C)cc[n+]([O-])c3C)CC2)CC1 | - | Ki | radiometric | 24 h | 0.0026 µM
CCN(C(=O)Cc1ccc(S(C)(=O)=O)cc1)C1CCN(CC[C@H](c2ccc(S(C)(=O)=O)cc2)c2cc(F)ccc2F)CC1 | - | IC50 | radiometric | - | 0.32 µM
CN(C[C@@H](CCNCCCc1ccccc1)c1cccc(Cl)c1)S(=O)(=O)c1ccccc1 | - | IC50 | radioligand binding / binding | - | >10 µM
CCN(C(=O)OCc1ccccc1)C1CCN(C(C)CC(CN(C)S(=O)(=O)c2ccccc2)c2ccccc2)CC1 | - | IC50 | radioligand binding / binding | - | 0.053 µM
CN(CC(CCN1CCC(c2ccccc2)CC1)c1ccccc1Cl)S(=O)(=O)c1ccccc1 | - | IC50 | radioligand binding / binding | - | 3.3 µM
CCCN(C(=O)OCc1ccc2ccccc2c1)C1CCN(CCC(CN(C)S(=O)(=O)c2ccccc2)c2ccccc2)CC1 | - | IC50 | radioligand binding / binding | - | 0.005 µM
CN(C[C@@H](CCN1CCN(c2ccccc2)CC1)c1cccc(Cl)c1)S(=O)(=O)c1ccccc1 | - | IC50 | radioligand binding / binding | - | 2.4 µM
C[C@H](NC(=O)[C@H](CCCN=C(N)N)NC(=O)c1ccc(CNCc2ccccn2)cc1)c1cccc2ccccc12 | - | IC50 | radiometric | - | >10 µM
CCN(C(=O)OCc1ccccc1)C1CCN(CCC(CN(C)S(=O)(=O)c2ccccc2)(c2ccccc2)C(C)C)CC1 | - | IC50 | radioligand binding / binding | - | >0.1 µM
Cc1cc(C)cc(C(CCN2CCC(c3ccccc3)CC2)CN(C)S(=O)(=O)c2ccccc2)c1 | - | IC50 | radioligand binding / binding | - | 0.18 µM
CCN(C(=O)Cc1ccc(S(C)(=O)=O)cc1)C1CCN(CC[C@H](c2ccc(S(C)(=O)=O)cc2)c2cccc(F)c2F)CC1 | - | IC50 | radiometric | - | 0.02 µM
Cc1ccc(-c2ccc3c(c2)C=C(C(=O)Nc2ccc(C[N+](C)(C)C4CCOCC4)cc2)CCC3)cc1 | - | IC50 | radioligand binding / binding | - | 0.0014 µM
CCN(C(=O)Cc1ccc(S(C)(=O)=O)cc1)C1CCN(CC[C@H](c2ccc(S(C)(=O)=O)cc2)c2cccc(C(F)(F)F)c2)CC1 | - | IC50 | radiometric | - | 0.02 µM
O=C(c1ccccc1Cl)N1C[C@H](CN2CCC(O)(CCCc3ccc(-c4nn[nH]n4)cc3)CC2)[C@@H](c2ccccc2)C1 | CCR5-D276A | IC50 | radiometric | - | 0.005 µM
CN(C[C@@H](CCN1CCC2(CC1)CS(=O)(=O)c1ccccc12)c1ccc(Cl)cc1)S(=O)(=O)c1ccccc1 | - | IC50 | radioligand binding / binding | - | 0.27 µM
CCOC(=O)OCC(CCN1CCC(N(CC)C(=O)OCc2ccccc2)CC1)(CN(C)S(=O)(=O)c1ccccc1)c1ccccc1 | - | IC50 | radioligand binding / binding | - | 0.053 µM
Cc1cccc(C)c1C(=O)N1CCC(N2CCN([C@@H](C)c3ccc(I)cc3)[C@@H](C)C2)CC1 | - | Ki | radiometric | - | 0.01 µM
Cc1cc(-c2ccccc2)nn1C1CCN(C[C@H]2CN([C@@H](C(=O)O)C3CCCCC3)C[C@@H]2c2ccccc2)CC1 | - | IC50 | radiometric | - | <2 µM
CCCN(C(=O)OCc1ccc([N+](=O)[O-])cc1)C1CCN(CC[C@](CO)(CN(C)S(=O)(=O)c2ccccc2)c2ccccc2)CC1 | - | IC50 | radioligand binding / binding | - | 0.001 µM
C[C@H]1CN(C2CCN(C(=O)c3c(F)cccc3I)CC2)CCN1[C@@H](C)c1ccc(I)cc1 | - | Ki | binding | - | 1.3 µM
C[C@H]1CN(C2CCN(C(=O)c3c(F)cccc3I)CC2)CCN1[C@@H](C)c1ccc(I)cc1 | - | Ki | binding | - | 1.3 µM
O=C(C1CCCCC1)N1C[C@H](CN2CCC(N(Cc3ccccc3)c3ccccn3)CC2)[C@@H](c2ccccc2)C1 | - | IC50 | radioligand binding / binding | - | <1 µM
C/C=C(\C)[C@@H]1C=C[C@@H]2C[C@H](C)C[C@H](C)[C@H]2[C@@H]1/C(O)=C1/C(=O)N[C@H](C[C@](C)(O)C(=O)O)C1=O | - | IC50 | radiometric | - | 1.2 µM
CCN(C(=O)OCc1ccccc1)C1CCN(CCC(CN2C(=O)N[C@H](Cc3c[nH]c4ccccc34)C2=O)c2ccccc2)CC1 | - | IC50 | radioligand binding / binding | - | 0.013 µM
CCN(C(=O)OCc1ccccc1)C1CCN(CCC(COC(=O)N(C)C)(CN(C)S(=O)(=O)c2ccccc2)c2ccccc2)CC1 | - | IC50 | radioligand binding / binding | - | >0.1 µM
CC[C@H](C)[C@H](C(=O)O)N1C[C@H](CN2CCC(c3cc(Cc4cccc(CN)c4)nn3CC)CC2)[C@@H](c2cccc(F)c2)C1 | - | IC50 | radiometric | - | 0.0005 µM
CCN(C(=O)Cc1ccc(S(C)(=O)=O)cc1)C1CCN(CC[C@H](c2ccc(S(C)(=O)=O)cc2)c2cccc(F)c2)CC1 | - | IC50 | radiometric | - | 0.00022 µM
C=CCN(C(=O)OCc1ccccc1)C1CCN(CC[C@](CO)(CN(C)S(=O)(=O)c2ccccc2)c2ccccc2)CC1 | - | IC50 | radioligand binding / binding | - | 0.0006 µM
CCO/N=C(\c1ccc(Br)cc1)C1CCN(C2(C)CCN(C(=O)c3c(C)ccnc3C)CC2)CC1 | - | Ki | binding | - | 0.0079 µM
CN(CCC(CCN1CCC2(CC1)CS(=O)c1ccccc12)c1ccccc1)S(=O)(=O)c1ccccc1 | - | IC50 | radioligand binding / binding | - | >1 µM
CN(C)C(=O)c1ccccc1C(=O)N1CCC(C)(N2CCC(N(c3ccccc3)c3ccccc3)CC2)CC1 | - | IC50 | radiometric | - | >1 µM
CCN(C(=O)Cc1ccc(S(C)(=O)=O)cc1)C1CCN(CCC(c2ccccc2)c2ccc(S(C)(=O)=O)cc2)CC1 | - | IC50 | radiometric | - | 0.0017 µM
c1ccc(CCCC2CCN(CC3[C@@H](c4ccccc4)CN4OC5(CCCCC5)C[C@@H]34)CC2)cc1 | - | IC50 | - | - | <1 µM
CN1CC(C(=O)N(CCCN2CCC(C(=O)c3ccc(F)cc3)CC2)c2ccccc2)CC1=O | - | IC50 | radiometric | - | 1.9 µM
CCCN(C(=O)COc1ccccc1)C1CCN(CCC(CN(C)S(=O)(=O)c2ccccc2)c2ccccc2)CC1 | - | IC50 | radioligand binding / binding | - | 0.005 µM
Cc1cccc(C)c1C(=O)N1CCC(N2CCN([C@@H](C)c3ccc(S(=O)(=O)c4ccc5c(c4)OCO5)cc3)[C@@H](C)C2)CC1 | - | IC50 | binding / radiometric | - | 0.05 µM
C/C=C\CN(C(=O)OCc1ccccc1)C1CCN(CCC(C)(CN(C)S(=O)(=O)c2ccccc2)c2ccccc2)CC1 | - | IC50 | radioligand binding / binding | - | 0.004 µM
CN(CC(CCN1CCC(c2ccccc2)CC1)c1ccccc1)S(=O)(=O)c1ccccc1 | - | IC50 | radioligand binding / binding | - | 0.12 µM
CN(C[C@@H](CCN1CCC2(CC1)CSc1ccccc12)c1ccc(Cl)cc1)S(=O)(=O)c1ccccc1 | - | IC50 | radioligand binding / binding | - | 4 µM
CCN(C(=O)Cc1ccc(S(C)(=O)=O)cc1)C1CCN(CC[C@H](c2ccc(S(C)(=O)=O)cc2)c2cccc(OC)c2)CC1 | - | IC50 | radiometric | - | 0.025 µM
CCCC(CCN1CCC(c2ccccc2)CC1)CN(C)S(=O)(=O)c1ccccc1 | - | IC50 | radioligand binding / binding | - | >10 µM
CN(CC(CCCN1CCC2(CC1)CS(=O)(=O)c1ccccc12)c1cccc(Cl)c1)S(=O)(=O)c1ccccc1 | - | IC50 | radioligand binding / binding | - | 0.52 µM

Lines come from different laboratories, so protocols vary. ICn is the concentration giving n% inhibition.